Consider one substance from PMC3634732, “Chemical Chaperones Exceed the Chaperone Effects of RIC-3 in Promoting Assembly of Functional α7 AChRs” (PLoS ONE, 2013).

Protein sequences, listed by entry. Tags and fused reporters are not part of them. Lines headed by an entry give the natural chain unless they say otherwise; changes in a name come on top.
UniProt P36544: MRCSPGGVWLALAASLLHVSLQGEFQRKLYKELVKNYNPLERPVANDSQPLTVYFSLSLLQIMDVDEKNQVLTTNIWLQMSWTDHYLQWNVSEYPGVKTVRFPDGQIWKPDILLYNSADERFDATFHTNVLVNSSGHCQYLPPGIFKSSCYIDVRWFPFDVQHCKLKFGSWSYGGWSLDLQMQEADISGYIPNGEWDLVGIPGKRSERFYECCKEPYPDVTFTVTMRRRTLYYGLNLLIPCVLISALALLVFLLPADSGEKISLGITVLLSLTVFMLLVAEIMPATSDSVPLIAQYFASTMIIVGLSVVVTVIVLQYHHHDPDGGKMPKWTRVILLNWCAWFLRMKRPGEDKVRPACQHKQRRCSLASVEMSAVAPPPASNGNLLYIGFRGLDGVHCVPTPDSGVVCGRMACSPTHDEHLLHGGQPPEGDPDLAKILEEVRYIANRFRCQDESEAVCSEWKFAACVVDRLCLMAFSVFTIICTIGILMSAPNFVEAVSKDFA

Test [1] addresses T1, α7 AChRs (Homo sapiens, UniProt P36544). As to the kind of experiment: 125I αBgt total binding to fixed cells permeabilized with Triton X-100. The conditions noted are these: read-out: KD, high affinity binding.
Test [2] concerns the target T1, α7 AChRs. As to the kind of experiment: 125I αBgt binding to the surface of live α7/RIC-3 cells. The conditions noted are these: read-out: KD, high affinity binding.

Usually Kd stands for the constant that tells how readily two partners part at equilibrium. Turning to α bungarotoxin, the figures for the Kd on α7 AChRs [1] and on α7 AChRs [2] were 2.18 nM and 0.841 nM, respectively.
